The record followed here is patent US8475804B2 (priority 2009, dated 2013).

The test concerns Ebola virus. In kind it is cell-based, Ebolavirus (EBOV).

A word on the IC50: it is the concentration that inhibits the measured activity by half.

In the case of Gramicidin, the IC50 came to 1700 nM.

In the case of Sodium Vanadate, the “Max Effect” value is given as 0.525.
